Values quoted from earlier work in patent US11192850B2, “N-aryl oxamic acids” (Purdue Research Foundation, priority 2020, dated 2021).

Chains of the proteins cited; added tags and fusions are not shown. Lines headed by an entry give the natural chain unless they say otherwise; changes in a name come on top.
UniProt I6WXK4: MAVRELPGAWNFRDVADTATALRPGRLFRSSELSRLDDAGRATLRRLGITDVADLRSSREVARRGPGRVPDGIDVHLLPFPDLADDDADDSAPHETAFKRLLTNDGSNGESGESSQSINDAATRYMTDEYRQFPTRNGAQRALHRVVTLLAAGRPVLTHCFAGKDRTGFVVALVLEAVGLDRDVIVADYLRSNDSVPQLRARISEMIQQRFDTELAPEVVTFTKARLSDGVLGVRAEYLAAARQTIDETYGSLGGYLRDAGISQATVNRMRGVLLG

Biological target: mPTPB (Mycobacterium tuberculosis (strain ATCC 25618 / H37Rv), UniProt I6WXK4)
Settings: reported by other authors; cited from earlier work

Substance: (oxalylamino methylene)-thiophene sulfonamide [Compound VI]
- selectivity for mPTPB over six human PTPs: over 60 fold
